The series can be described thus: general procedure: Fmoc solid-phase peptide synthesis; 2-CTC resin; HBTU/DIPEA. Particulars: whole synthesis, scale 0.1 mmol.

Regarding “DOTA-Ahx-Axh-Glu-Trp-Pro-Arg-Pro-Gln-Ile-Pro-Pro-OH”, the isolated mass was 33.6 mg.

Values taken from PMC10113987 (EJNMMI Research, 2023).
